This data set concerns F22-4 antibody. In words: ITC microcalorimetry. More on the design: species or system murine. To be noted: ITC binding stoichiometry; PBS buffer at 25°C. An excerpt: ITC experiments with F22-4 antibody and several chemically synthesized oligosaccharidic fragments of O-Ag 2a lead to two major results.
As to `COC1OC(C)C(OC2OC(CO)C(O)C(O)C2O)C(OC2OC(C)C(O)C(O)C2OC2OC(C)C(O)C(O)C2OC2OC(CO)C(O)C(OC3OC(C)C(OC4OC(CO)C(O)C(O)C4O)C(OC4OC(C)C(O)C(O)C4O)C3O)C2NC(C)=O)C1O` (stereo not shown) [B(E)CDAB(E)C], the n is 2,05±0,20.
In the case of `CO[C@@H]1O[C@@H](C)[C@H](O)[C@@H](O)[C@H]1O[C@@H]1O[C@H](CO)[C@@H](O)[C@H](O[C@@H]2O[C@@H](C)[C@H](O[C@H]3O[C@H](CO)[C@@H](O)[C@H](O)[C@H]3O)[C@@H](O[C@@H]3O[C@@H](C)[C@H](O)[C@@H](O)[C@H]3O)[C@H]2O)[C@H]1NC(C)=O` [B(E)CDA] it was 1,77±0,01.
Then `COC1OC(C)C(OC2OC(CO)C(O)C(O)C2O)C(OC2OC(C)C(O)C(O)C2OC2OC(C)C(O)C(O)C2OC2OC(CO)C(O)C(OC3OC(C)C(OC4OC(CO)C(O)C(O)C4O)C(OC4OC(C)C(O)C(O)C4OC4OC(C)C(O)C(O)C4OC4OC(CO)C(O)C(O)C4NC(C)=O)C3O)C2NC(C)=O)C1O` (stereo not shown) [DAB(E)CDAB(E)C], with 1,80±0,03; and `CO[C@@H]1O[C@@H](C)[C@H](O)[C@@H](O)[C@H]1O[C@@H]1O[C@@H](C)[C@H](O)[C@@H](O)[C@H]1O[C@@H]1O[C@H](CO)[C@@H](O)[C@H](O[C@@H]2O[C@@H](C)[C@H](O[C@H]3O[C@H](CO)[C@@H](O)[C@H](O)[C@H]3O)[C@@H](O)[C@H]2O)[C@H]1NC(C)=O` [ECDAB], with 1,72±0,01.
In the case of `COC1OC(C)C(O)C(O)C1OC1OC(CO)C(O)C(OC2OC(C)C(OC3OC(CO)C(O)C(O)C3O)C(O)C2O)C1NC(C)=O` (stereo not shown) [ECDA] it was 1,72±0,01; in that of `CC(=O)N[C@@H]1[C@@H](O[C@@H]2O[C@@H](C)[C@H](O[C@H]3O[C@H](CO)[C@@H](O)[C@H](O)[C@H]3O)[C@@H](O[C@@H]3O[C@@H](C)[C@H](O)[C@@H](O)[C@H]3O[C@@H]3O[C@@H](C)[C@H](O)[C@@H](O)[C@H]3O[C@@H]3O[C@H](CO)[C@@H](O)[C@H](O[C@@H]4O[C@@H](C)[C@H](O[C@H]5O[C@H](CO)[C@@H](O)[C@H](O)[C@H]5O)[C@@H](O[C@@H]5O[C@@H](C)[C@H](O)[C@@H](O)[C@H]5O[C@@H]5O[C@@H](C)[C@H](O)[C@@H](O)[C@H]5O)[C@H]4O)[C@H]3NC(C)=O)[C@H]2O)[C@H](O)[C@@H](CO)O[C@H]1O` [[AB(E)CD]2], 1,93±0,04; in that of `CC(=O)N[C@@H]1[C@@H](O[C@@H]2O[C@@H](C)[C@H](O[C@H]3O[C@H](CO)[C@@H](O)[C@H](O)[C@H]3O)[C@@H](O[C@@H]3O[C@@H](C)[C@H](O)[C@@H](O)[C@H]3O[C@@H]3O[C@@H](C)[C@H](O)[C@@H](O)[C@H]3O[C@@H]3O[C@H](CO)[C@@H](O)[C@H](O[C@@H]4O[C@@H](C)[C@H](O[C@H]5O[C@H](CO)[C@@H](O)[C@H](O)[C@H]5O)[C@@H](O[C@@H]5O[C@@H](C)[C@H](O)[C@@H](O)[C@H]5O[C@@H]5O[C@@H](C)[C@H](O)[C@@H](O)[C@H]5O[C@@H]5O[C@H](CO)[C@@H](O)[C@H](O[C@@H]6O[C@@H](C)[C@H](O[C@H]7O[C@H](CO)[C@@H](O)[C@H](O)[C@H]7O)[C@@H](O[C@@H]7O[C@@H](C)[C@H](O)[C@@H](O)[C@H]7O[C@@H]7O[C@@H](C)[C@H](O)[C@@H](O)[C@H]7O)[C@H]6O)[C@H]5NC(C)=O)[C@H]4O)[C@H]3NC(C)=O)[C@H]2O)[C@H](O)[C@@H](CO)O[C@H]1O` [[AB(E)CD]3], 2,03±0,02.

The values above are taken from patent EP2123668A1, “Immunogenic polypeptides that mimic the surface polysaccharide O-antigen from serotype 2A shigella flexneri, method for obtaining the same, and their use in vaccine and diagnostic compositions” (INSTITUT PASTEUR, priority 2008, dated 2009).
